From US20170198014A1, “POLYPEPTIDES AND THEIR USE FOR TREATING INFLUENZA” (UNIVERSITY WASHINGTON THROUGH ITS CENTER FOR …, published 2017)

B1: Hsc1 (SEQ ID NO:135) fused to HAA.1c (SEQ ID NO:227) via the triLong linker (SEQ ID NO: 352), trimer (designed binder)
chain: MEEVVLITVPSEEVARTIAKALVEERLAACVNIVPGLTSIYRWQGEVVEDQELLLLVKTTTHAFPKLKERVKALHPYTVPEIVALPIAQGNQEYLDWLRENAGGGGSGGSGIVNVPNCNTTKYQQLARTAVAIYNYHEQAHLTFVENLNCKEQLGEGDYYYITLAATDDAGKKAIYEAKIGVVESAGWTGVEEFKLV
B2: SB24alt1-1 (designed binder)
chain: ASGMLAISMDTDKISNSFEDCKYFQLYVLSAGWTNTIFNDESGKEEIVKMSVDAIICKNISEENYKKFSKKIEIYHAEGDDVDKNISLFLEGELSKISNP

Key:
[1] = molecular target: hemagglutinin H9 A/turkey/Wisconsin/1/1966 (influenza A virus …, UniProt P03457 19-526)
[2] = molecular target: hemagglutinin H11 A/duck/England/1/1956 (influenza A virus A/duck/England/1/1956 …, UniProt P04661 17-531)
[3] = molecular target: hemagglutinin H12 A/duck/Alberta/60/1976 (influenza A virus …, UniProt P03446 17-530)
[4] = molecular target: hemagglutinin H1 A/Beijing/262/1995 (influenza A virus A/Beijing/262/1995 …); assay: BLI (Octet), biotinylated HA on streptavidin sensors
[5] = molecular target: hemagglutinin H3 A/Panama/2007/1999 (influenza A virus A/Panama/2007/1999 …); assay: as above
[6] = molecular target: hemagglutinin H2 (A/Adachi/2/1957-H2N2) (influenza A virus A/Adachi/2/1957 (H2N2)); assay: as above
[7] = molecular target: hemagglutinin H3 (A/Victoria/361/2011) (influenza A virus A/Victoria/361/2011 …); assay: as above
[8] = molecular target: hemagglutinin H1 A/USSR/90/1977 (influenza A virus A/USSR/90/1977 (H1), UniProt P03453 18-529); assay: BLI (Octet); text of paragraph 293: 'a few strains could not be targeted'
[9] = molecular target: hemagglutinin H1 (A/New Caledonia/20/1999) (influenza A virus A/New …); assay: yeast surface display titration

Binder	Kd [1] [nM]	binding result [2]	Kd [3] [nM]	Kd [4] [nM]	Kd [5] [nM]	Kd [6] [nM]	Kd [7] [nM]	binding result [8]	Kd [9] [nM]
B1	9.4	no binding	9.2	2.8	56.5	< 1	< 1	no binding	–
B2	–	–	–	–	–	–	–	–	436
